For 46 molecules, activation results are on record in PubChem BioAssay AID624414 (National Center for Advancing Translational Sciences (NCATS), 2012).

Sequences of proteins named here, by UniProt entry; tags and fusion partners are left off.
UniProt Q9GZU1, whole entry: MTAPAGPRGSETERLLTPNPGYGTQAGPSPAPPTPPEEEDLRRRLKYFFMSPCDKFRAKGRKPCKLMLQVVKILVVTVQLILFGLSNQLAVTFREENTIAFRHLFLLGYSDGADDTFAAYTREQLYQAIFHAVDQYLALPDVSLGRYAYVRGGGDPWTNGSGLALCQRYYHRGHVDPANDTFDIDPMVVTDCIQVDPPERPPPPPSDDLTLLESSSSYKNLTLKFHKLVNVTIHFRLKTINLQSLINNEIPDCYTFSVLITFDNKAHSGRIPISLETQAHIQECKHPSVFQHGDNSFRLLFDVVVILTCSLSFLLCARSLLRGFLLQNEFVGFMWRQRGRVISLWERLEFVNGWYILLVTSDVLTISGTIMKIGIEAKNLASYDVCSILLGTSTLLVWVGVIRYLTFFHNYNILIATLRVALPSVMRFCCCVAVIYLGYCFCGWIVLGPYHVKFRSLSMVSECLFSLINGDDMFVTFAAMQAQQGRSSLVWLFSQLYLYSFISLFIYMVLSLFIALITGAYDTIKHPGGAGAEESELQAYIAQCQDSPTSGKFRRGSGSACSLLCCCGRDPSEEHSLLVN

Only a part is listed here, and it is no random draw. Calls of active or inactive are those of the source. Rule as the data show it: active = activation above about 50%; inconclusive = mostly about 30% to 49%; inactive = weaker than that.

The target in this experiment is Mucolipin-1 (Homo sapiens) (UniProt Q9GZU1). Description: qHTS for Agonists of the Human Mucolipin Transient Receptor Potential 1 (TRPML1). Also: 0% is about no effect. Conditions: TRPML1-expressing cells, Ca2+ dye fluorescence, FDSS; active compounds read high. The text has this: Mutations of human Mucolipin transient receptor potential 1 (TRPML1) cause type IV mucolipidosis (ML4), a devastating neurodegenerative disease in young children. […] Currently, there is no treatment for ML4. […] Under physiological conditions, TRPMLs regulate membrane trafficking by transducing information about PI(3,5)P2 levels into changes in juxtaorganellar Ca2+, thereby triggering membrane fusion/fission events in the late endocytic pathways (endolysosomal trafficking). In addition, TRPML1 mediates release of Fe2+ from late endosomes and lysosomes, which is essential for cellular iron metabolism. Thus, impaired ion (Ca2+ and Fe2+) homeostasis underlies lysosomal dysfunction and ML4 phenotypes. In ML4 cells, the problem is twofold. First, defective Ca2+-dependent membrane trafficking due to TRPML1-deficiency causes accumulation of lipids and other bio-materials in the lysosome. The second strike comes from the lysosomal iron overload (due to impairment of TRPML1's Fe2+ conductivity), which converts the accumulated materials into the nondegradable (resistant to lysosomal degradation) lipofuscin (also called aging pigment) in the lysosome. Lipofuscin accumulation dramatically compromises the functions of lysosomes.
Niemann-Pick type C (NPC) disease is another lysosome storage disease (LSD) with severe neurodegeneration during the childhood. Currently, there is no cure for NPC. […] Thus, TRPML1 is likely to be an essential regulator of lysosome ion homeostasis. We specifically hypothesize that stimulating TRPML1's Fe2+/Ca2+ channel activity in the lysosome using synthetic agonists can alleviate neurodegeneration associated with ML4 or NPC.
To this end, a high throughput screen was developed in a miniaturized format to screen against the Molecular Libraries Small Molecule Repository (MLSMR) to find small molecules that act either as inhibitors or agonist against the TRPML1 channel.
NIH Chemical Genomics Center [NCGC]
NIH Molecular Libraries Probe Centers Network [MLPCN]
Assay Submitter (PI): Haoxing Xu, University of Michigan Ann Arbor
TRPML1-DL cells are dissociated from flasks, counted and, brought up to a density of 500,000 cells per mL of media containing a 1X Tet inducer. Using a Multidrop Combi, 3uL of this cell solution is dispensed to each well of a 1536 TC treated, black, clear bottom hi base plate for a final cell density of 1,500 cells per well. The assay plates are incubated overnight (approximately 16 hours) at 37 degrees C and 5% CO2. Using a Multidrop Combi, 2uL of ABD Ca8 no wash dye plus quencher is added to each well. The assay plates incubate at room temperature in the dark for 45-90 minutes. The assay plate is read on the FDSS using the following protocol: 10 second baseline read, 23nL of compounds and controls are added using 1536 pintool, agonist read for 110 seconds, 1 uL EC80 addition (4uM final 54-4 diluted in media), antagonist read for 110 seconds.
For the molecule `O=C(O)c1cccc(Nc2c([N+](=O)[O-])cc([N+](=O)[O-])cc2[N+](=O)[O-])c1`, the activation is inactive: 0.934%. The result for `O=c1[nH]c2ccccc2n1C1CCN(C(c2cccs2)c2nnnn2C2CCCC2)CC1` (stereo unspecified) reads inactive: 1.08%. The result for `CCc1cc(C(=O)NCC2(N3CCCCC3)CCCCC2)sc1C` reads inactive: 19.9%. Consider `O=C(OC1CN2CCC1CC2)C1c2ccccc2C=Cc2ccccc21` (stereo unspecified), for which the activation is inactive: -0.72%.

Consider `CCCCn1nnnc1C(c1cccc(OC)c1OC)N1CCC(n2c(=O)[nH]c3ccccc32)CC1` (stereo unspecified), for which the activation was inactive: -0.347%. The result for `CCOC(=O)N1CCC(Nc2ccc(C)cc2)CC1` reads inactive: 0.425%; that for `COc1cccc(C(c2nnnn2C(C)(C)C)N2CCC(n3c(=O)[nH]c4ccccc43)CC2)c1OC` (stereo unspecified), inactive: 2.52%. Regarding `N/C(=N\O)c1c(N)no[n+]1[O-]`, the activation was inactive: 1.31%. The result for `O=Cc1ccc(N(CCCl)CCCl)cc1` reads inactive: -0.602%; that for `O=c1[nH]c2ccccc2n1C1CCN(C(c2cccs2)c2nnnn2C2CCCCC2)CC1` (stereo unspecified), inactive: 0.162%; that for `O=c1[nH]c2ccccc2n1C1CCN(C(c2ccnc3ccccc23)c2nnnn2C2CCCC2)CC1` (stereo unspecified), inactive: -0.433%. For `COc1ccc(C(=O)NCC2(N3CCOCC3)CCCCC2)cc1OC` the value was inactive: 1.36%; for `COc1cc(C(=O)NCC2(N3CCOCC3)CCCCC2)cc(OC)c1C`, inactive: -0.824%; for `CCCCn1nnnc1C(c1ccccc1)N1CCC(n2c(=O)[nH]c3ccccc32)CC1` (stereo unspecified), inactive: -0.378%. The result for `O=C(NCC1(N2CCOCC2)CCCCC1)c1cc(Br)ccc1Cl` reads inactive: 1.26%; that for `CC(C)(C)n1nnnc1C(c1cccc2ccccc12)N1CCC(n2c(=O)[nH]c3ccccc32)CC1` (stereo unspecified), inactive: -0.221%; that for `CN(C)C1(CNC(=O)c2cccc(C#N)c2)CCCCC1`, inactive: -0.0408%.

Consider `O=c1[nH]c2ccccc2n1C1CCN(C(c2ccccc2)c2nnnn2C2CCCC2)CC1` (stereo unspecified), for which the activation is inactive: -0.504%. For `CCCN1CCC(Nc2cc(OC)cc(OC)c2)CC1` the value was inactive: 0.579%; for `Cc1cc(N(CCCl)CCCl)ccc1C=O`, inactive: 1.06%; for `O=C(NCC1(N2CCOCC2)CCCCC1)c1ccccc1`, inactive: 0.804%. For `c1ccc(CN2CCC(Nc3ccccc3)CC2)cc1` the value was inactive: 0.107%; for `CCOC(=O)C(CC)C1=NC(C)(C)Cc2ccccc21.O=[N+]([O-])c1cc([N+](=O)[O-])c(O)c([N+](=O)[O-])c1` (stereo unspecified), inactive: 1.4%; for `O=C(NCC1(N2CCOCC2)CCCCC1)c1ccccc1[N+](=O)[O-]`, inactive: 0.0619%. The result for `N#Cc1ccc(C(=O)NCC2(N3CCCCC3)CCCCC2)cc1` reads inactive: -0.335%; that for `O=C(NCC1(N2CCOCC2)CCCCC1)c1ccc([N+](=O)[O-])cc1`, inactive: 3.68%; that for `CC(C)(C)OC(=O)N1CCC(N(C(=O)c2ccccc2)c2ccc(Cl)cc2)CC1`, inactive: 0.65%.

In the case of `Cc1ccccc1C(=O)NCC1(N(C)C)CCCCC1`, the activation is inactive: -0.102%. The result for `CN(C)c1ccc(C(=O)NCC2(N3CCCCC3)CCCCC2)cc1` reads inactive: -0.455%; that for `Cn1c(=O)[nH]cc(N(CCCl)CCCl)c1=O`, inactive: 0.569%.

With `O=C(NCC1(N2CCCCC2)CCCCC1)c1ccco1`, the activation is inactive: 1.94%.

With `CC(C)(C)c1ccc(C(=O)NCC2(N3CCOCC3)CCCCC2)cc1`, the activation is inactive: -0.912%.

On to `COc1ccc(C(c2nnnn2C2CCCCC2)N2CCC(n3c(=O)[nH]c4ccccc43)CC2)cc1` (stereo unspecified), for which the activation is inactive: -0.284%. For `CCN1CCC(Nc2cccc(F)c2)CC1` the value was inactive: 0.325%; for `CC(C)(C)n1nnnc1C(c1ccnc2ccccc12)N1CCC(n2c(=O)[nH]c3ccccc32)CC1` (stereo unspecified), inactive: -0.347%; for `Cc1ccccc1NC1(C#N)CCN(Cc2ccccc2)CC1`, inactive: 0.325%. With `Fc1ccccc1NC1CCN(Cc2ccccc2)CC1`, the activation is inactive: 0.383%.

As to `Cc1ccc(Nc2c([N+](=O)[O-])cc([N+](=O)[O-])cc2[N+](=O)[O-])cc1`, the activation was inactive: 1.19%. The result for `Cc1ccc(C(=O)NCC2(N3CCCCC3)CCCCC2)o1` reads inactive: -0.51%. For `Cc1ccc(NC2(C#N)CCN(Cc3ccccc3)CC2)cc1` the value was inactive: 0.911%.

As for `CCC(c1nnnn1C1CCCCC1)N1CCC(n2c(=O)[nH]c3ccccc32)CC1` (stereo unspecified), the activation was inactive: 1.06%. For `COc1cccc(C(c2nnnn2C2CCCCC2)N2CCC(n3c(=O)[nH]c4ccccc43)CC2)c1OC` (stereo unspecified), the activation was inactive: 0.866%. The result for `CN(C)C1(CNC(=O)c2ccc(C(C)(C)C)cc2)CCCCC1` reads inactive: 3.62%; that for `CC(=O)N(c1ccccc1)C1CCNCC1`, inactive: -0.363%; that for `COc1cc(OC)cc(C(=O)NCC2(N3CCCCC3)CCCCC2)c1`, inactive: -0.0318%. For `O=c1[nH]c2ccccc2n1C1CCN(C(c2ccnc3ccccc23)c2nnnn2C2CCCCC2)CC1` (stereo unspecified) the value was inactive: -0.756%.
